Pooled drug test results. Numbers come from NIAID ChemDB, via PubChem.

All rows: tests in culture; organism: HIV-1

Blank or dashed fields: not listed here. Rows are shuffled and stem from different studies. ECn: concentration that inhibits the pathogen or its effect by n%.

smiles | measure | method | strain | mutations | cell line | result
CC(C)C[C@H](N)C(=O)O.[Na+] | EC50 | luciferase | IIIB | - | - | 0.76 µM
CC(C)c1cc2c(c(O)c1O)[C@@]1(C(=O)O)CCCC(C)(C)C1CC2 | EC50 | - | clinical isolate 1(TM MDR X4) | PR-L10I K14R R41K M46L I54V L63P A71V V82A L90M I93L | PBMC | >1 µM
CC1=CC2=C(C(C)C)C(O)C(=O)/C(=C\N[C@H](CC(C)C)C(=O)O)C2C(O)=C1c1c(C)cc2c(C(C)C)c(O)c(O)c(C=N[C@@H](CC(C)C)C(=O)O)c2c1O.[Na+].[Na+] | EC50 | p24 / ELISA / antigen | IIIB | - | TZM-bl | 0.71 µM
Cc1occc1C(=S)Nc1ccc(Cl)c(/C=N/OC(C)(C)C)c1 | EC50 | cytopathic effect | HE | - | MOLT | 0.08 µg/mL
Nc1cccc2c1nc(-c1c(F)cccc1F)n2Cc1c(F)cccc1F | EC50 | cytopathic effect / MTT | - | RT-L74V | MT-4 | 0.3 µM
C/C=C/CN1C(=O)c2cccn2S(=O)(=O)c2ccc(Cl)cc21 | EC50 | cytopathic effect / MTT | IIIB | - | MT-4 | >300 µM
CN[C@@H]1C[C@H]2O[C@@](C)([C@@H]1OC)n1c3ccccc3c3c4c(c5c6ccccc6n2c5c31)C(=O)N[C@@H]4O | EC50 | p24 / ELISA | - | - | MOLT-4/HIV-1 + MOLT-4 | >0.08 µM
CC[C@@H](C)[C@@H](N/C=C1\C(=O)C(O)C(C(C)C)=C2C=C(C)C(c3c(C)cc4c(C(C)C)c(O)c(O)c(C=N[C@H](C(=O)O)[C@@H](C)CC)c4c3O)=C(O)C21)C(=O)O.[Na+].[Na+] | EC50 | p24 / ELISA / antigen | IIIB | - | TZM-bl | 0.51 µM
CC(=O)Nc1cccc2c1nc(-c1c(F)cccc1F)n2Cc1c(F)cccc1F | EC50 | cytopathic effect / MTT | - | RT-L100I | MT-4 | 31.6 µM
CC(C)(N)C(=O)O.[Na+] | EC50 | luciferase | IIIB | - | - | 1.08 µM
CCc1cc(NCc2nc3c(Cl)ccc(Cl)c3o2)c(=O)[nH]c1C | EC50 | syncytia | Quin-0.02(RT-V106A) | RT-V106A | CEM | 0.14 µM
N#Cc1ccccc1C#CC1(C2CC2)NC(=O)Nc2ccc(Cl)cc21 | EC95 | - | IIIB | - | MT-4 | 0.012 µM
Cc1c(O)cccc1C(=O)N[C@@H](Cc1ccccc1)[C@H](O)CN(CC(C)C)S(=O)(=O)c1ccc2ncsc2c1 | EC50 | cytopathic effect / MTT | IIIB | - | CEM | 0.007 µM
Nc1ncnc2c1ncn2[C@@H]1O[C@@H](CO)C=C1F | EC50 | RT activity | LAV | - | PBMC | 47.6 µM
COC(=O)[C@H](C)NP(=O)(OC[C@@H]1O[C@H](n2ccc(N)nc2=O)CS1)Oc1ccccc1 | EC50 | syncytia | IIIB | - | CEM | 2.5 µM
CC(C)Nc1cccnc1N1CCN(C(=O)c2cc3cc(NS(C)(=O)=O)ccc3[nH]2)CC1 | EC50 | syncytia | IIIB | - | CEM | 0.015 ± 0.007 µM
CC(C)[C@H](N)C(=O)O.[Na+] | EC50 | luciferase | IIIB | - | - | 0.56 µM
O=c1[nH]cnc2c1ncn2[C@H]1CC[C@@H](CO)O1 | EC50 | cytopathic effect / MTT | IIIB | - | MT-4 | 5.37 µM
O=C1Nc2cc(Cl)ccc2S(=O)(=O)n2cccc21 | EC50 | cytopathic effect / MTT | IIIB | - | MT-4 | 35 µM
CC12CCC3C(CCC4CCCCC43C)C1CC(F)C2=O | EC50 | syncytia | IIIB | - | PBL | 4.8 µM
CN(C)CCN1CC(=O)N2c3ccccc3N(C)n3cccc3C2C1=O | EC50 | cytopathic effect / MTT | IIIB | - | MT-4 | 193 µM
COC(=O)c1cccc2c1nc(-c1c(F)cccc1F)n2Cc1c(F)cccc1F | EC50 | cytopathic effect / MTT | - | RT-Y181C | MT-4 | 8.4 µM
N#CCN1C(=O)N(Cc2ccccc2)S(=O)(=O)c2cscc21 | EC50 | syncytia | IIIB | - | CEM | 1.2 µM
COC(=O)[C@H](C)NP(=O)(OC[C@@H]1CC[C@H](n2cnc3c(N)ncnc32)O1)Oc1ccccc1 | EC90 | antigen | BaL | - | MM + M/M | 0.02 µM
Nc1nc(=O)n([C@@H]2CC[C@H](CO)O2)cc1F | EC50 | - | 184V (RT-M184V) | RT-M184V | HT4 + HT4 LacZ-1 | >200 µM
CC(C)CN(C[C@@H](O)[C@H](Cc1ccccc1)NC(=O)[C@@H](C)CS(C)(=O)=O)S(=O)(=O)c1ccc2nc(N)sc2c1 | EC50 | cytopathic effect / MTT | IIIB | - | CEM | 0.084 µM
CC(C)=CCOc1c2occc2cc2ccc(=O)oc12 | EC50 | luciferase | NL4-3 Recombinant VSV-pseudotyped | - | MT-2 | <25 µM
CCc1c(Sc2cccc3ccccc23)nc(SCC(=O)c2ccc(Cl)cc2)[nH]c1=O | EC50 | cytopathic effect / MTT | IIIB | - | MT-4 | 5.94 µM
O=c1ccc2cc3ccoc3cc2o1 | EC50 | luciferase | NL4-3 Recombinant VSV-pseudotyped | - | MT-2 | >50 µM
C=C(C)[C@@H]1CC[C@]2(C(=O)NCCCCCCCC(=O)N[C@@H](CC(C)C)[C@H](O)CC(=O)O)CC[C@]3(C)[C@H](CC[C@@H]4[C@@]5(C)CC[C@H](O)C(C)(C)[C@@H]5CC[C@]43C)[C@@H]12 | EC50 | RT activity | NL4-3 | - | CEM | <0.22 µM
Nc1ncnc2c1ncn2[C@H]1C=C[C@@H](CO)O1 | EC50 | syncytia | IIIB | - | CEM | 29 µM
CC(C)=CCN1C(=O)c2cccn2S(=O)(=O)c2ccccc21 | EC50 | cytopathic effect / MTT | IIIB | - | MT-4 | >41 µM
CCOCn1c(Cc2ccccc2)c(C(C)C)c(=O)[nH]c1=O | EC50 | cytopathic effect | - | - | CEM | 0.003 µg/mL
CCc1cc(CCc2nc3ccccc3o2)c(=O)[nH]c1C | EC90 | cytopathic effect / MTT | IIIB | - | MT-4 | 0.051 µM
Cc1cc(C#N)cc(C)c1Oc1nc(Nc2ccc(C#N)cc2)nc(N)c1Br | EC50 | luciferase | p8.9 B (N348I) | - | HEK293T | 0.00275 µM
CC(C)Oc1cccc(-c2ccc3c(c2)SC(=N)N2CCCN=C32)c1 | EC50 | MTT | IIIB | - | MT-4 | 0.71 µM
CN(C)c1cccc2c1nc(-c1c(F)cccc1F)n2Cc1c(F)cccc1F | EC50 | cytopathic effect / MTT | - | RT-M184I | MT-4 | 0.16 µM
Cc1ccnc2c1NC(=O)c1cccnc1N2C1CC1 | EC95 | - | - | RT-K70R | MT-4 | 0.4 µM
Cc1ccccc1C(=O)N[C@@H](Cc1ccccc1)[C@H](O)CN(CC(C)C)S(=O)(=O)c1ccc2nc(N)sc2c1 | EC50 | cytopathic effect / MTT | IIIB | - | CEM | 0.012 µM
N=C1Sc2ccccc2C2=NCCCN12 | EC50 | MTT | IIIB | - | MT-4 | 3.5 µM
O=C1N(Cc2ccccc2)c2cscc2S(=O)(=O)N1Cc1ccccc1 | EC50 | syncytia | NDK | - | MT-4 | 2.1 µM
Cc1ccnc2c1NC(=O)c1cccnc1N2C1CC1 | EC50 | cytopathic effect | IIIB | - | CEM | 0.0064 µg/mL
CS(=O)(=O)N1CCC2(CC1)CN=C1c3ccc(Br)cc3SC(=N)N1C2 | EC50 | MTT | IIIB | - | MT-4 | 5.2 µM
CCOCn1c(Cc2ccccc2)c(C(C)C)c(=O)[nH]c1=O | EC50 | cytopathic effect | B-1 (RT L100V K103R/K Y188H) | RT-L100V K103R/K Y188H | CEM | 0.011 µg/mL
Cc1cn([C@H]2C[C@H](N=[N+]=[N-])[C@@H](CO)O2)c(=O)[nH]c1=O | EC50 | RT activity | N119 nevirapine-resistant (RT Y181C) | RT-Y181C | CEM + CEM-SS | 0.004 µM
CC(C)=CCN1Cc2cc(Cl)cc3[nH]c(=S)n(c23)C[C@@H]1C | EC50 | syncytia | Quin-0.1 (RT V106A P225H) | RT-V106A P225H | CEM | 11 µM
O=C1Nc2ccccc2S(=O)(=O)n2cccc21 | EC50 | cytopathic effect / MTT | IIIB | - | MT-4 | 11 µM
CC(C)Nc1cccnc1N1CCN(C(=O)c2cc3ccccc3[nH]2)CC1 | EC50 | syncytia | HEPT (RT Y188H) | RT-Y188H | CEM | 0.88 µM
N=C1Sc2cc(-c3ccccc3)ccc2C2=NCCCN12 | EC50 | MTT | IIIB | - | MT-4 | 2.2 µM
CC(C)=CCN1Cc2cccc3[nH]c(=S)n(c23)C[C@@H]1C | EC95 | - | IIIB | - | MT-4 | 0.2 µM
Cc1ccccc1CNC(=O)[C@H]1N(C[C@@H](O)C[C@@H](Cc2ccccc2)C(=O)N[C@H]2c3ccccc3OC[C@H]2O)CSC1(C)C | EC95 | p24 | - | PR-V18C | MT-4 | 1 µM
CCOC(=O)C1c2cccn2N(C)c2ccccc2N1C(=O)CCl | EC50 | cytopathic effect / MTT | IIIB | - | MT-4 | >6 µM
Cc1ccnc2c1NC(=O)c1cccnc1N2C1CC1 | EC50 | syncytia | - | RT-K103N | CEM | 5.6 µM
CC(C)N1C(=O)c2cccn2S(=O)(=O)c2cc(Cl)ccc21 | EC50 | cytopathic effect / MTT | IIIB | - | MT-4 | >300 µM
Nc1ccn([C@@H]2CC[C@H](CO)O2)c(=O)n1 | EC50 | - | RTMC (RT D67N K70R T215F K219Q) | RT-D67N K70R T215F K219Q | HT4 + HT4 LacZ-1 | 4 µM
CNc1cccc2c1nc(-c1c(F)cccc1F)n2Cc1c(F)cccc1F | EC50 | cytopathic effect / MTT | - | RT-K103N | MT-4 | 10.2 µM
O=C1Nc2ccc(Cl)cc2C(C#Cc2ccccn2)(C2CC2)N1 | EC50 | - | IIIB | - | MT-4 | <0.025 µM
CC(C)=CCOc1cc(NC(=S)c2ccoc2C)ccc1Cl | EC50 | cytopathic effect | P-1 (RT-K103N Y144F) | RT-K103N Y144F | CEM | 0.05 µg/mL
O=S1(=O)c2ccccc2NC(CO)c2cccn21 | EC50 | cytopathic effect / MTT | IIIB | - | MT-4 | >200 µM
Cc1ccnc2c1NC(=O)c1cccnc1N2C1CC1 | EC90 | cytopathic effect / MTT | IIIB | - | MT-4 | 0.26 µM
COC(=O)[C@H](C)NP(=O)(OC[C@@H]1CC[C@H](n2ccc(N)nc2=O)O1)Oc1ccccc1 | EC50 | antigen | BaL | - | MM + M/M | 0.09 µM
Nc1ncnc2c1ncn2C1OC(CO)C=C1F | EC90 | RT activity | LAV | - | PBMC | 15.1 µM
CC(C)(C)NC(=O)[C@@H]1C[C@@H]2CCCC[C@@H]2CN1C[C@@H](O)[C@H](Cc1ccccc1)NC(=O)[C@H](CC(N)=O)NC(=O)c1ccc2ccccc2n1 | EC50 | cytopathic effect / MTT | NL4-3 | - | MT-4 | 0.02 µM
COc1cc(-c2oc3cc(O)cc(O)c3c(=O)c2O)ccc1O | EC50 | p24 / ELISA | IIIB | - | H9 | 1.78 µg/mL
CCN1C(=O)N(Cc2ccccc2)S(=O)(=O)c2cscc21 | EC50 | syncytia | RF | - | MT-4 | 28.2 µM
CC(C)CN(C[C@@H](O)[C@H](Cc1ccccc1)NC(=O)OCc1cccnc1)S(=O)(=O)c1ccc2nc(N)sc2c1 | EC50 | cytopathic effect / MTT | IIIB | - | CEM | 0.005 µM
CC(C)[C@H](NC(=O)N(C)Cc1ccccn1)C(=O)N[C@@H](Cc1ccccc1)[C@H](O)[C@H](O)[C@H](Cc1ccccc1)NC(=O)[C@@H](NC(=O)N(C)Cc1ccccn1)C(C)C | EC50 | cytopathic effect / MTT | MN | - | MT-4 | 0.12 µM
CC(C)CN(C[C@@H](O)[C@H](Cc1ccccc1)NC(=O)OC1CCOC1)S(=O)(=O)c1ccc2nc(N)sc2c1 | EC50 | cytopathic effect / MTT | IIIB | - | CEM | 0.004 µM
CC1=CC2=C(C(C)C)C(O)C(=O)/C(=C\N[C@@H](C(=O)O)C(C)C)C2C(O)=C1c1c(C)cc2c(C(C)C)c(O)c(O)c(C=N[C@H](C(=O)O)C(C)C)c2c1O.[Na+].[Na+] | EC50 | luciferase / reporter gene | NL4-3 | - | TZM-bl | 0.17 µM
CC(C)=CCN1C(=O)c2cccn2S(=O)(=O)c2cc(Cl)ccc21 | EC50 | cytopathic effect / MTT | IIIB | - | MT-4 | 129 µM
CC(C)CN(C[C@@H](O)[C@H](Cc1ccccc1)NC(=O)O[C@H]1CCOC1)S(=O)(=O)c1ccc(N)cc1 | EC50 | cytopathic effect / MTT | NL4-3 Gag L75 H219 V390 WT | - | MT-2 | >2.5 µM
CC(C)=CCOc1cc(NC(=S)c2ccsc2C)ccc1Cl | EC50 | cytopathic effect | IIIB | RT-V106A | CEM | 0.005 µg/mL
COC(=O)[C@H](C)NP(=O)(OC[C@@H]1C=C[C@H](n2cnc3c(N)ncnc32)O1)Oc1ccccc1 | EC50 | syncytia | IIIB | - | CEM | 0.006 µM
Cc1c(Sc2ccccc2)n(COCCO)c(=O)[nH]c1=O | EC50 | cytopathic effect / MTT | IIIB | - | MT-4 | 5.06 µM
Cc1cn([C@@H]2O[C@H](CO[Si](C)(C)C(C)(C)C)C3(OS(=O)(=O)C=C3N)[C@H]2O[Si](C)(C)C(C)(C)C)c(=O)n(C)c1=O | EC50 | syncytia | Quin-0.02(RT-V106A) | RT-V106A | CEM | 1.1 µM

Repeating the first 5 entries:

{"smiles": "CC(C)C[C@H](N)C(=O)O.[Na+]", "measure": "EC50", "method": "luciferase", "strain": "IIIB", "result": "0.76 µM"}
{"smiles": "CC(C)c1cc2c(c(O)c1O)[C@@]1(C(=O)O)CCCC(C)(C)C1CC2", "measure": "EC50", "strain": "clinical isolate 1(TM MDR X4)", "mutations": "PR-L10I K14R R41K M46L I54V L63P A71V V82A L90M I93L", "cell line": "PBMC", "result": ">1 µM"}
{"smiles": "CC1=CC2=C(C(C)C)C(O)C(=O)/C(=C\\N[C@H](CC(C)C)C(=O)O)C2C(O)=C1c1c(C)cc2c(C(C)C)c(O)c(O)c(C=N[C@@H](CC(C)C)C(=O)O)c2c1O.[Na+].[Na+]", "measure": "EC50", "method": "p24 / ELISA / antigen", "strain": "IIIB", "cell line": "TZM-bl", "result": "0.71 µM"}
{"smiles": "Cc1occc1C(=S)Nc1ccc(Cl)c(/C=N/OC(C)(C)C)c1", "measure": "EC50", "method": "cytopathic effect", "strain": "HE", "cell line": "MOLT", "result": "0.08 µg/mL"}
{"smiles": "Nc1cccc2c1nc(-c1c(F)cccc1F)n2Cc1c(F)cccc1F", "measure": "EC50", "method": "cytopathic effect / MTT", "mutations": "RT-L74V", "cell line": "MT-4", "result": "0.3 µM"}